The numbers were not newly measured in PMC9435674, “Delineating the activity of the potent nicotinic acetylcholine receptor agonists (+)-anatoxin-a and (−)-hosieine-A” (2022), which cites them from elsewhere.

Molecules are shown by their SMILES.

This data set has as its system mice. As to conditions: intraperitoneal injection, ref Devlin et al., 1977, Christensen & Khan, 2020.

Broadly, the LD50 is the dose expected to kill half of the subjects tested. As for `CC(=O)C1=CCCC2CCC1N2` (single isomer, unassigned), the LD50 was 0.2 to 0.25 mg/kg.
